Taken from: PubChem BioAssay AID624099 (ICCB-Longwood, 2012)
Assay: 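Host factors E2 relies on to silence an HPV18 LCR reporter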 (primary screen). System: human C33A cervical carcinoma cells (HPV-negative) stably expressing BPV1 E2 and an HPV18 LCR luciferase reporter. Reagent: siRNA pool against human genes, 40 nM. Duration: 72 h. Measured: 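HPV18 LCR reporter light per well, converted to plate-wise z-scores that exclude control wells, and averaged over triplicate plates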. Scale: mean z-score and z-score: higher = stronger reporter signal, weaker E2 silencing. Hit rule: 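Hit if mean z-score reaches 2 and two or more of three replicate z-scores also reach 2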.
The whole screen tested about 21,000 reagents; this is a part drawn at random. In the full data, 497 (2.4%) got an active call. 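Higher z means weaker E2 silencing; only reporter increases were scored, and knock-downs that hurt cell survival may mask genuine repressor factors.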 A number with no mark means an inactive call. The numbers tell different reagents against one gene apart.

target | pool no. | mean z-score | z-score, replicate A | z-score, replicate B | z-score, replicate C
RNPEP | 1 | 0.41 | 0.32 | 0.52 | 0.39
ADORA3 | 1 | -0.16 | -0.28 | -0.2 | -0.01
ADORA3 | 2 | 0.59 | 0.73 | 0.51 | 0.54
RAB11A | 1 | 1.74 | 1.75 | 1.63 | 1.83
CR1 | 1 | 0.16 | 0.08 | 0.25 | 0.14
PCDHA6 | 1 | 1.73 | 1.65 | 1.43 | 2.12
RPL5P18 | 1 | -0.71 | -0.62 | -0.82 | -0.68
LAMP3 | 1 | -1.2 | -1.22 | -1.18 | -1.2
PPARG | 1 | 0.94 | 1.06 | 0.83 | 0.94
ADRA2C | 1 | 2.45 (active) | 2.22 | 2.7 | 2.44
CLCN5 | 1 | -0.65 | -0.48 | -0.7 | -0.78
COPS8-DT | 1 | -1.46 | -1.22 | -1.54 | -1.62
PAGE3 | 1 | 1.33 | 1.23 | 1.41 | 1.34
GTF2A1L | 1 | 0.98 | 0.64 | 1.11 | 1.19
DNASE2 | 1 | -1.41 | -0.99 | -1.81 | -1.43
CCNJ | 1 | 1.96 | 1.41 | 2.59 | 1.87
PTK7 | 1 | -0.91 | -0.82 | -1.28 | -0.65
PLXNA1 | 1 | 2.49 (active) | 2.56 | 2.23 | 2.68
SEMA3C | 1 | -0.6 | -0.63 | -0.43 | -0.75
PEX1 | 1 | -0.03 | 0.09 | 0.14 | -0.31
THBS3 | 1 | -0.82 | -0.35 | -1.07 | -1.03

The list goes on; the last 7 above are carried over.
target | pool no. | mean z-score | z-score, replicate A | z-score, replicate B | z-score, replicate C
DNASE2 | 1 | -1.41 | -0.99 | -1.81 | -1.43
CCNJ | 1 | 1.96 | 1.41 | 2.59 | 1.87
PTK7 | 1 | -0.91 | -0.82 | -1.28 | -0.65
PLXNA1 | 1 | 2.49 (active) | 2.56 | 2.23 | 2.68
SEMA3C | 1 | -0.6 | -0.63 | -0.43 | -0.75
PEX1 | 1 | -0.03 | 0.09 | 0.14 | -0.31
THBS3 | 1 | -0.82 | -0.35 | -1.07 | -1.03
MPP1 | 1 | -0.45 | -0.79 | -0.23 | -0.34
LOC402689 (retired record) | 1 | 0.9 | 1.27 | 0.61 | 0.81
NR4A3 | 1 | 1.57 | 1.68 | 1.58 | 1.44
TBPL2 | 1 | 2.33 (active) | 2.47 | 1.94 | 2.58
BAIAP2 | 1 | 1.21 | 1.19 | 1.32 | 1.11
SGMS1 | 1 | 0.3 | 0.51 | 0.37 | 0.03
CTH | 1 | -1.17 | -1.46 | -1.37 | -0.68
GTPBP4 | 1 | -0.71 | -0.94 | -0.44 | -0.75
HNRNPA1P8 | 1 | -0.18 | -0.14 | -0.42 | 0.02
HNRNPA1P8 | 2 | -0.42 | -0.33 | -0.54 | -0.41
RRM2 | 1 | 4.5 (active) | 4.89 | 4.54 | 4.08
RRM2 | 2 | 0.03 | -0.3 | -0.03 | 0.42
LOC388170 (retired record) | 1 | 0.26 | 0.11 | -0.42 | 1.08
PCYOX1L | 1 | -0.01 | 0.01 | -0.01 | -0.01
LOC387994 (retired record) | 1 | 0.19 | 0.1 | 0.41 | 0.08
ZNF812P | 1 | 0.26 | 0.48 | 0.17 | 0.12
PDZRN4 | 1 | -0.05 | -0.32 | 0 | 0.18
VSTM2L | 1 | -1.58 | -1.79 | -1.49 | -1.46
STRBP | 1 | -0.92 | -0.78 | -1.08 | -0.91
NDUFS2 | 1 | -0.39 | -0.71 | 0.04 | -0.5
TMEM240 | 1 | 0.94 | 0.86 | 1.21 | 0.76
PLEKHA7 | 1 | 0.11 | 0.72 | 0.01 | -0.4
IPMK | 1 | 0.81 | 0.49 | 0.94 | 0.99
CDH2 | 1 | -0.16 | -0.54 | 0.27 | -0.22
OR4F17 | 1 | -0.33 | -0.36 | -0.56 | -0.08
GSAP | 1 | -0.2 | -0.3 | 0.1 | -0.4
GSAP | 2 | 0.31 | 0.26 | 0.22 | 0.45
DUSP10 | 1 | -0.43 | -0.09 | -0.24 | -0.96
HNRNPM | 1 | 0.24 | 0.33 | 0.28 | 0.12
NMUR1 | 1 | 0.62 | 0.46 | 0.4 | 0.99
WFDC6 | 1 | -0.51 | -0.35 | -0.56 | -0.63
KCTD2 | 1 | -0.41 | -0.87 | -0.13 | -0.24
PALS2 | 1 | -1.32 | -1.17 | -1.06 | -1.72
VAMP4 | 1 | 1.95 | 1.6 | 2.04 | 2.2
CCR7 | 1 | 1.49 | 1.61 | 1.23 | 1.62
ESPL1 | 1 | 1.6 | 1.62 | 1.68 | 1.5
